Experimental findings from publication PMC12519464, “Dual-Site Inhibition of SARS-CoV‑2 RNA-Dependent RNA Polymerase by Small Molecules Able to Block Viral Replication Identified through a Computer-Aided Drug Discovery Approach” (ACS Infectious Diseases, 2025) are described below.

This assay addresses SARS-CoV-2 nsp12/7/8 (RTC) complex (Severe acute respiratory syndrome coronavirus 2, UniProt P0DTD1). It is filed as biochemical. The following applies: read-out: IC50: compound concentration required to inhibit by 50% the SARS-CoV-2 RTC enzymatic activity.

With “(2S,4aS,6aR,6aS,6bR,8aR,10S,12aS,14bR)-10-hydroxy-2,4a,6a,6b,9,9,12a,14b-octamethyl-N-(4-methylphenyl)-13-oxo-1,3,4,5,6,6a,7,8,8a,10,11,12-dodecahydropicene-2-carboxamide”, the IC50 is greater than 100 µM.
The value for Bromocryptine [reference compound] was greater than 100 µM; that for Echinocystic acid was 88.5 ± 16.2 µM.
